Data on one substance can be found in patent US20080118529.

The data set deals with H5-FLAG-His, haemagglutinin-5 of virus strain A/Vietnam/1203/2004 expressed in HEK293E cells (lot 1 210406CS).

“Tissue-type plasminogen activator (tPA, Actilyse, Boehringer-Ingelheim)”: the tPA/plasminogen activation assay result is reported as “In H5 lot 1 210406CS some tPA activating moieties are detected”.
